Results of unrelated studies side by side (data: NIAID ChemDB).

All rows: toxicity to cultured cells; cell line: HFF; measure: CC50

Conditions beyond the fields shown may differ between rows.

| compound | result |
|---|---|
| Cc1cn([C@@]23C[C@H](O)[C@@H](CO)[C@@H]2C3)c(=O)[nH]c1=O | 70.5 µg/mL |
| Nc1nc2c(ncn2C=C2CC2CO)c(=O)[nH]1 | 279 µM |
| COC(=O)C(C)NP(=O)(OC[C@@H]1C/C1=C\n1cc(N)c(=O)[nH]c1=O)Oc1ccccc1 | >100 µM |
| Nc1nc(NC2CC2)c2ncn(COCCCP(=O)(O)O)c2n1 | >300 µM |
| O=C(c1ccc(Oc2ccc(Cl)cc2O)s1)N1CCNCC1 | >10 µM |
| Nc1ncnc2ncn(/C=C3/C(F)C3(CO)CO)c12 | >300 µM |
| COC(=O)C(Cc1c[nH]c2ccccc12)NP(=O)(O)OCC1C/C1=C/n1cnc2c(N)ncnc21 | 90 µM |
| O[C@@H]1[C@H](O)[C@H](O)CO[C@H]1n1c(Br)nc2cc(Cl)c(Cl)cc21 | 158 µM |
| COc1c(C=O)c2cc(Cl)c(Cl)cc2n1[C@@H]1O[C@H](CO)[C@@H](O)[C@H]1O | 32 µM |
| Nc1nc(NCCO)c2ncn(/C=C3/C[C@@H]3CO)c2n1 | >362 µM |
| CCCCCSc1nc(N)nc2c1ncn2/C=C1/C[C@@H]1CO | >313 µM |
| CC(=O)OCC(COC(C)=O)OCn1cnc2c(=O)[nH]c(N)nc21 | >100 µg/mL |
| CCCCCCCCCCCCCCCCCCOCCCOP1(=O)CO[C@@H](Cn2ccc(N)nc2=O)CO1 | 77 µM |
| CNc1c(C=O)c2cc(Cl)c(Cl)cc2n1[C@@H]1O[C@H](CO)[C@@H](O)[C@H]1O | 3.2 µM |
| CCCCCCCCCCCCCCCCOCCCOP(=O)(O)CCCOCn1cnc2c(=O)[nH]c(N)nc21 | >100 µM |
| Cc1ccc(Cn2c(N)c(C#N)c3c(N)ncnc32)cc1 | 32 µM |
| COC(=O)[C@H](C)NP(=O)(OCC1C/C1=C/n1cnc2c(=O)[nH]c(N)nc21)Oc1ccccc1 | >100 µM |
| Cc1ccc(Cc2nn(COCCO)c(=O)[nH]c2=O)cc1 | >100 µM |
| CN1CCN(Cc2ccc(Oc3ccc(Cl)cc3O)cc2)CC1 | >10 µM |
| Cn1c(Cl)c([C@@H]2O[C@H](CO)[C@@H](O)[C@H]2O)c2cc(Cl)c(Cl)cc21 | >100 µM |
| Nc1nc(NCc2ccccc2)c2ncn(/C=C3/C[C@@H]3CO)c2n1 | >310 µM |
| O=c1[nH]c(=O)n(COC(CO)CO)nc1Cc1ccc(O)cc1 | >100 µM |
| CC(C)Nc1nc2cc(Cl)c(Cl)cc2n1[C@@H]1OC[C@@H](O)[C@H]1O | >100 µM |
| CCCOc1nc(N)nc2c1ncn2/C=C1/C[C@@H]1CO | 363 µM |
| O=C(NCc1ccc(Cl)cc1)c1c[nH]c2ccc(CCCO)cc2c1=O | >100 µM |
| Nc1nc(NC2CC2)c2ncn(/C=C3/C[C@@H]3CO)c2n1 | 367 µM |
| Nc1ncnc2c1ncn2[C@@H]1C[C@H](NC=O)[C@@H](O)[C@H]1O | >100 µg/mL |
| O=c1ccn([C@H]2C[C@H](O)[C@]3(CO)C[C@H]23)c(=O)[nH]1 | >100 µg/mL |
| O=C(NCc1ccc(Cl)cc1)c1cn(N2CCOCC2)c2ccc(CN3CCOCC3)cc2c1=O | >50 µM |
| Nc1nc(OCC2CC2)c2ncn(/C=C3/C[C@@H]3CO)c2n1 | >348 µM |
| O=C(O)c1ccc(Oc2ccc(Cl)cc2O)s1 | >10 µM |
| O=C(NCc1ccc(Cl)cc1)c1c[nH]c2ccc(CCCO)cc2c1=O | 47.7 µM |
| O[C@@H]1[C@H](O)CO[C@H]1n1c(Cl)nc2cc(Cl)c(Cl)cc21 | 32 µM |
| CCCCNc1c(C=O)c2cc(Cl)c(Cl)cc2n1[C@@H]1O[C@H](CO)[C@@H](O)[C@H]1O | 10 µM |
| COc1nc(N)nc2c1ncn2/C=C1/C[C@H]1CO | 404 µM |
| CCCOc1nc(N)nc2c1ncn2/C=C1/C[C@@H]1CO | >363 µM |
| COc1ccc(Cc2nn(COC(CO)CO)c(=O)[nH]c2=O)cc1 | >100 µM |
| CCCOc1nc(N)nc2c1ncn2/C=C1/C[C@@H]1CO | >363 µM |
| CCCCCCCC/C=C\CCCCCCCCOCCOP(=O)(O)CCCOCn1cnc2c(=O)[nH]c(N)nc21 | >100 µM |
| CCCCCCCCCCCCO[C@H]1O[C@H](COP(=O)(O)C(=O)O)[C@@H](O)[C@H](O)[C@H]1O | 770 µM |
| Nc1ccn(C[C@@H](CO)OCP(=O)(O)O)c(=O)n1 | >10 µg/mL |
| Nc1nc(OCC2CC2)c2ncn(/C=C3/C[C@@H]3CO)c2n1 | >348 µM |
| Brc1ccc(Nc2ncnc3ccccc23)cc1 | 2 µM |
| O=S(=O)(c1ccc(Oc2ccc(Cl)cc2O)cc1)N1CCCCC1 | >10 µM |
| [N-]=[N+]=NC(CCl)c1cn([C@H]2C[C@H](O)[C@@H](CO)O2)c(=O)[nH]c1=O | >150 µM |
| CC(C)Nc1nc(N)nc2c1ncn2/C=C1/C[C@@H]1CO | >365 µM |
| CC(C)[C@H](NC(=O)CN)C(=O)OCC(COC(=O)[C@@H](NC(=O)CN)C(C)C)OCn1cnc2c(=O)[nH]c(N)nc21 | ≥126 µM |
| OC[C@H]1O[C@@H](c2cc(Cl)nc3cc(Cl)c(Cl)cc23)C(O)C1O | 32 µM |
| Nc1n[nH]c(=O)c2c1ncn2[C@@H]1O[C@H](CO)[C@@H](O)[C@H]1O | 70 µM |
| OC[C@H]1O[C@@H](c2c(SCc3ccccc3)[nH]c3cc(Cl)c(Cl)cc23)[C@H](O)[C@@H]1O | 32 µM |
| CC(C)(C)OC(=O)N1CCN(C(=O)c2ccc(Oc3ccc(Cl)cc3O)s2)CC1 | >10 µM |
| O=c1[nH]c(=O)n(COCCO)nc1Cc1ccccc1 | >100 µM |
| COC(c1cn([C@H]2C[C@H](O)[C@@H](CO)O2)c(=O)[nH]c1=O)C(Br)Br | >225 µM |
| Nc1ncnc2c1ncn2/C=C1\[C@H](CO)C1(F)F | >100 µM |
| O=c1[nH]c(=O)n([C@H]2C[C@H](O)[C@@]3(CO)CC23)cc1/C=C/Br | >200 µM |
| Cc1cn([C@@]23C[C@H](O)[C@@H](CO)[C@@H]2C3)c(=O)[nH]c1=O | >20 µg/mL |
| CC(C)[C@H](N)C(=O)OCC(COC(=O)[C@@H](N)C(C)C)OCn1cnc2c(=O)[nH]c(N)nc21 | ≥147 µM |
| Nc1nc2c(ncn2/C=C2/C[C@@H]2CO)c(=O)[nH]1 | 390 µM |
| COC(=O)C(C)NP(=O)(OC[C@@H]1C/C1=C/n1cc(N)c(=O)[nH]c1=O)Oc1ccccc1 | 100 µM |
| COc1ccc(Cn2cc(C(N)=S)c3c(N)ncnc32)cc1 | 66 µM |
| Nc1nc(OCC2CC2)c2ncn(/C=C3/C[C@@H]3CO)c2n1 | >348 µM |
| CNc1nnnc2c1ncn2[C@@H]1O[C@H](CO)[C@@H](O)[C@H]1O | 70 µM |
| CCCCCCCCCCCCCCCCCCOCCOP(=O)(O)CCCOCn1cnc2c(=O)[nH]c(N)nc21 | >100 µM |
| CCCSc1nc(N)nc2c1ncn2/C=C1/C[C@@H]1CO | >343 µM |
| CCCCCCCCCCCCCCO[C@@H]1O[C@H](COP(=O)(O)C(=O)O)[C@@H](O)[C@H](O)[C@H]1O | 649 µM |
| CC(=O)OCC(CO)OCn1cnc2c(=O)[nH]c(N)nc21 | >100 µg/mL |
| OC[C@H]1O[C@@H](n2c(Cl)nc3cc(Cl)c(Cl)cc32)[C@H](O)[C@@H]1O | 238 µM |
| COC(=O)C(C)NP(=O)(OC[C@@H]1C/C1=C/n1cc(C)c(=O)[nH]c1=O)Oc1ccccc1 | >100 µM |
| CCO[C@@H]1[C@@H](OCC)[C@H](Cc2ccccc2)O[C@@H]2CO[C@@H](c3ccc(Cl)cc3)O[C@@H]12 | 71 µg/mL |
| CCCCCCCC/C=C\CCCCCCCCO[C@H]1O[C@H](COP(=O)(O)C(=O)O)[C@@H](O)[C@H](O)[C@H]1O | 287 µM |
| N#Cc1c(Cl)n([C@@H]2O[C@H](CO)[C@@H](O)[C@H]2O)c2cc(Cl)c(Cl)cc12 | 32 µM |
| COC(=O)[C@H](C)NP(=O)(OC[C@H]1C/C1=C/n1cnc2c(N)nc(N)nc21)Oc1ccccc1 | 121 µM |
| O=C(NCc1ccc(Cl)cc1)c1c[nH]c2ccc(C#CCO)cc2c1=O | 41.7 µM |
| CN(C)c1c(C#N)c2cc(Cl)c(Cl)cc2n1[C@@H]1O[C@H](CO)[C@@H](O)[C@H]1O | 100 µM |
| CSc1nnnc2c1ncn2[C@@H]1O[C@H](CO)[C@@H](O)[C@H]1O | 100 µM |
| Oc1cc(Cl)ccc1Oc1ccc(C(F)(F)F)cc1Cl | >10 µM |
| COC(c1cn([C@H]2C[C@H](O)[C@@H](CO)O2)c(=O)[nH]c1=O)C(Br)I | >204 µM |
| COc1ccc(Cn2cc(C(N)=S)c3c(N)ncnc32)cc1 | 49 µM |
| CC(=O)O[C@H]1[C@H](n2c(Br)nc3cc(Cl)c(Cl)cc32)OC[C@H]1OC(C)=O | 59 µM |
| Nc1ncnc2c1ncn2Cc1c(F)cccc1Cl | 50 µg/mL |
| NC[C@H]1C[C@@H](n2cnc3c(N)ncnc32)[C@H](O)[C@@H]1O | 3.1 µg/mL |
| Nc1ccn(C[C@@H](CO)OCP(=O)(O)O)c(=O)n1 | >317 µM |
| Cc1cc(NC(=O)c2ccc(Oc3ccc(Cl)cc3O)o2)no1 | >10 µM |
| Nc1nc(NC2CC2)c2ncn(/C=C3/C[C@@H]3CO)c2n1 | >367 µM |
| CCCC(=O)OCC(CO)OCn1cnc2c(=O)[nH]c(N)nc21 | >100 µg/mL |
| COC(c1cn([C@H]2C[C@H](O)[C@@H](CO)O2)c(=O)[nH]c1=O)C(I)I | >186 µM |
| O=C(O)P(=O)(O)O | >3000 µM |
| O=c1[nH]c(=O)n([C@H]2C[C@H](O)[C@@H](CO)O2)cc1C(O)C(Cl)Cl | >294 µM |
| CCCCCCCCCCCCCCCCCCOC[C@H](COP(=O)(O)CO[C@H](CO)Cn1ccc(N)nc1=O)OCc1ccccc1 | 47 µM |
| Oc1cc(Cl)ccc1Oc1ccc(N2CCOCC2)cc1 | >10 µM |
| Nc1ccn(C[C@H]2COP(=O)(O)CO2)c(=O)n1 | >331 µM |
| COc1ccc(Cc2nn(COCCO)c(=O)[nH]c2=O)cc1 | >100 µM |
| OC[C@H]1O[C@@H](n2c(Br)nc3cc(Cl)c(Cl)cc32)[C@H](O)[C@@H]1O | >250 µM |
| COC(c1cn([C@H]2C[C@H](O)[C@@H](CO)O2)c(=O)[nH]c1=O)C(Cl)Br | >250 µM |
| [N-]=[N+]=NC(CI)c1cn([C@H]2C[C@H](O)[C@@H](CO)O2)c(=O)[nH]c1=O | 76 µM |
| CCCCCSc1nc(N)nc2c1ncn2/C=C1/C[C@@H]1CO | >313 µM |
| Nc1ncnc2c1ncn2C12CCC(O)C1(CO)C2 | >100 µg/mL |

14 of the rows above, restated:

compound | result
OC[C@H]1O[C@@H](c2c(SCc3ccccc3)[nH]c3cc(Cl)c(Cl)cc23)[C@H](O)[C@@H]1O | 32 µM
CCCCCCCCCCCCCCCCCCOCCCOP1(=O)CO[C@@H](Cn2ccc(N)nc2=O)CO1 | 77 µM
Nc1ncnc2c1ncn2[C@@H]1C[C@H](NC=O)[C@@H](O)[C@H]1O | >100 µg/mL
CN1CCN(Cc2ccc(Oc3ccc(Cl)cc3O)cc2)CC1 | >10 µM
COC(c1cn([C@H]2C[C@H](O)[C@@H](CO)O2)c(=O)[nH]c1=O)C(Br)I | >204 µM
COc1c(C=O)c2cc(Cl)c(Cl)cc2n1[C@@H]1O[C@H](CO)[C@@H](O)[C@H]1O | 32 µM
COc1nc(N)nc2c1ncn2/C=C1/C[C@H]1CO | 404 µM
O=S(=O)(c1ccc(Oc2ccc(Cl)cc2O)cc1)N1CCCCC1 | >10 µM
CC(C)[C@H](N)C(=O)OCC(COC(=O)[C@@H](N)C(C)C)OCn1cnc2c(=O)[nH]c(N)nc21 | ≥147 µM
CC(C)[C@H](NC(=O)CN)C(=O)OCC(COC(=O)[C@@H](NC(=O)CN)C(C)C)OCn1cnc2c(=O)[nH]c(N)nc21 | ≥126 µM
CNc1nnnc2c1ncn2[C@@H]1O[C@H](CO)[C@@H](O)[C@H]1O | 70 µM
COC(=O)C(C)NP(=O)(OC[C@@H]1C/C1=C/n1cc(N)c(=O)[nH]c1=O)Oc1ccccc1 | 100 µM
CCCCCCCCCCCCCCCCCCOCCOP(=O)(O)CCCOCn1cnc2c(=O)[nH]c(N)nc21 | >100 µM
Nc1ncnc2c1ncn2Cc1c(F)cccc1Cl | 50 µg/mL

CCn is the concentration with n% toxicity to the cells.